Common to all, as to assay: cell-based or functional assay
Experiment [1] concerns the target integrin αvβ5 on HT-29 cells, human, P06756 31-1048; P18084 24-799.
The target in experiment [2] is integrin αIIbβ3 on CHO-αIIbβ3 cells, not stated, P08514 32-1039; P05106 27-788.
In experiment [3] the target is integrin αvβ6 on HT-29 cells, human, P06756 31-1048; P18564 22-788.
Experiment [4] has as its target integrin αvβ3 on CHO-αvβ3 cells, not stated, P06756 31-1048; P05106 27-788.
The target in experiment [5] is integrin αIIbβ3 on platelets of healthy donors, not stated, P08514 32-1039; P05106 27-788.
The target of experiment [6] is integrin α5β1 on K562 cells, human, P08648 42-1049; P05556 21-798.

In experiment [1], ^39SRAGK-^46RIARGDDP-^66RYH had an IC50, adhesion of HT-29 cells to vitronectin of 6.89 µM. The same substance came in with an IC50, adhesion of CHO-αIIbβ3 cells to fibrinogen in experiment [2] of 5.12 µM. The IC50, adhesion of HT-29 cells to fibronectin in experiment [3] worked out at 15 µM. For the same substance, the IC50, adhesion of CHO-αvβ3 cells to fibrinogen in experiment [4] is 0.0453 µM. Moreover, the IC50, Platelet Aggregation in experiment [5] was 0.753 µM.
Consider ^39SRAGK-^46RIARLDDL-^66RYH, for which the IC50, adhesion of HT-29 cells to vitronectin in experiment [1] worked out at 0.941 µM. Further, the IC50, adhesion of CHO-αIIbβ3 cells to fibrinogen in experiment [2] was 23.2 µM. This substance also yielded an IC50, adhesion of HT-29 cells to fibronectin in experiment [3] of 20.7 µM. The IC50, adhesion of K562 cells to fibronectin in experiment [6] came to 14.5 µM. The same substance showed an IC50, adhesion of CHO-αvβ3 cells to fibrinogen in experiment [4] of 0.042 µM. Also, in experiment [5], the IC50, Platelet Aggregation was determined as 10.4 µM.

The values above are taken from patent publication US20200010516.
